Measured values from several laboratories, pooled; numbers as filed in NIAID ChemDB.

Common to all: growth or infection tests; species: Mycobacterium tuberculosis

a–b is a range or a potency band. ECn is the concentration giving n% inhibition of infection, replication or growth. Blank or dashed fields: not listed here. A number after MIC or MFC names an inhibition level or a share of isolates. MIC bound comes from a single tested concentration. Percent inhibition refers to the dose given; in toxicity tests it is the harm to the cells. Conditions beyond the fields shown may differ between rows.

SMILES,changes,measure,read by,strain,dose,result
c1ccc(C(=NOCc2nnc(N3CCCCC3)o2)c2ccccc2)cc1,-,inhibition,-,-,12.5 µg/mL,7–56%
Cc1cccc(OC(=O)c2ccc(N)cc2O)c1,-,MIC,-,H37Rv,-,0.005 µg/mL
O=C(Nc1ccc(C(=O)O)c(OC(=O)c2ccc(F)cc2)c1)c1ccc(F)cc1,-,MIC90,resazurin,H37Rv,-,<6.25 µg/mL
O=C1NC(=S)N/C1=C/c1cccc(Oc2ccccc2)c1,-,EC50,BACTEC,H37Rv,-,<6.25 µg/mL
O=C1c2cc(C(F)(F)F)ccc2-n2c1nc1ccncc1c2=O,-,MIC,-,H37Rv,-,0.03 µg/mL
CCCCCCCCCCCCCCCCCC(=O)N1c2ccccc2Sc2ccccc21,-,MIC bound,BACTEC,H37Rv,-,>12.5 µg/mL
CCN1CCc2c(sc(NC(=O)c3c(F)c(F)c(F)c(F)c3F)c2C(=O)NC)C1,-,MIC,turbidity,ATCC35838,-,3 µM
Nc1ccc(C(=O)OCc2ccccc2)c(O)c1,-,MIC,-,H37Rv (p-aminosalicylate-resistant),-,100 µg/mL
O=C1c2c(cccc2C(F)(F)F)-n2c1nc1ccncc1c2=O,-,MIC,-,H37Rv,-,0.13 µg/mL
C[C@H]1COc2c(N3CCN(C)CC3)c(F)cc3c(=O)c(C(=O)O)cn1c23,-,MBC90,-,DRUG-SUS,-,0.5 µg/mL
CC1=CC2=C(C=O)C(=O)[C@@](C)(O)[C@H](O)C2=CO1,-,MIC,BACTEC,H37Rv,-,≥12.8 µg/mL
C(=C\c1nnc(CCON=C(c2ccccc2)c2ccccc2)o1)/c1ccccc1,-,inhibition,-,-,12.5 µg/mL,7–56%
CO[C@H]1/C=C/O[C@@]2(C)Oc3c(C)c(O)c4c(O)c(c(/C=N/N5CCN(C)CC5)c(O)c4c3C2=O)NC(=O)/C(C)=C\C=C\[C@H](C)[C@H](O)[C@@H](C)[C@@H](O)[C@@H](C)[C@H](OC(C)=O)[C@@H]1C,INH RFP resistant,MIC90,resazurin,Clinical Isolate 16995,-,>40 µg/mL
O=C(O)c1ccc(N2C(=O)/C(=C/c3ccc(F)cc3)N=C2c2ccccc2)cc1O,-,MIC90,resazurin,H37Rv,-,<6.25 µg/mL
CCCCCCCCC=CCCCCCCCCNCc1cccnc1,-,MIC,-,H37Ra,-,<25 µg/mL
Nc1nc(NCCO)c(NC=O)c(=O)[nH]1,-,MIC bound,BACTEC,H37Rv,-,>12.5 µg/mL
Oc1ccccc1CNCCCCCNCc1ccccc1O,-,MIC,-,H37Ra,-,>25 µg/mL
CC(=O)NC[C@H]1CN(c2ccc(N3CCN(c4ccc([N+](=O)[O-])s4)CC3)c(F)c2)C(=O)O1,-,MIC,-,H37Ra,-,≤0.125 µg/mL
Cn1nnc2c1C(=O)c1ccccc1C2=O,-,MIC bound,BACTEC,H37Rv,-,≤12.5 µg/mL
CC[C@H]1OC(=O)[C@H](C)[C@@H](O[C@H]2C[C@@](C)(OC)[C@@H](O)[C@H](C)O2)[C@H](C)[C@@H](O[C@@H]2O[C@H](C)C[C@H](N(C)C)[C@H]2O)[C@](C)(O)C[C@@H](C)C(=O)[C@H](C)[C@@H](O)[C@]1(C)O,-,MIC90,-,Drug-resistant,-,>8 µg/mL
O=C1NC(=S)N/C1=C/c1ccc(Cl)cc1,-,inhibition,BACTEC,H37Rv,6.25 µg/mL,86%
COc1cc(CC2C(=O)OCC2C2(c3ccc4c(c3)OCO4)SCCCS2)cc(OC)c1OC,-,inhibition,BACTEC,H37Rv,12.5 µg/mL,-22%
O=C1c2cc(C3OC=CO3)ccc2-n2c1nc1ccncc1c2=O,-,MIC,-,H37Rv,-,0.13 µg/mL
CCCCCCCCNC(CC(=O)OCC)c1cccc(Cl)c1,-,MIC,-,Sensitive strains,-,12.5 µg/mL
CC1CN(c2cc3c(cc2F)c(=O)c(C(=O)O)cn3-c2ccc(F)cc2F)CCN1,-,MIC,-,ATCC 35827,-,0.5 µg/mL
O=C(O)c1ccc(NCN2CCN(CNc3ccc(C(=O)O)c(O)c3)CC2)cc1O,-,MIC90,resazurin,H37Rv,-,<6.25 µg/mL
CCCCc1nc2ccc(Br)cc2c2nc3ccccc3n12,INH resistant,MIC99,resazurin,H37Rv,-,6.25 µg/mL
CCN1CCc2c(sc(N)c2C(=O)O)C1,-,MIC,resazurin,H37Rv,-,>100 µg/mL
NC(=O)c1cnccn1,-,MIC,-,Isolate 11823 monodrug-resistant,-,>300 µg/mL
CCc1nc2ccc(Br)cc2c2nc3ccccc3n12,-,MIC99,resazurin,H37Rv,-,12.5 µg/mL
CC1CN(c2cc3nc4n(c(=O)c3cc2F)-c2ccc(C(=O)O)cc2C4=O)CCN1,-,MIC,-,H37Rv,-,>8 µg/mL
Cc1ccc(-c2cnnc(N3CCC(c4ccccc4)C3)n2)o1,-,MIC,low oxygen,H37Rv-CV-lux-AB,-,54.7 µM
CC(C)(C)c1ccc(N2CC3CN(Cc4ccc([N+](=O)[O-])o4)CC3C2)cc1,-,MIC90,resazurin,H37Rv,-,0.062 µg/mL
CCCCCCCCNCc1ccc(Cl)cc1,-,MIC,-,H37Ra,-,<25 µg/mL
COc1ccccc1OC(=O)c1ccc(N)cc1O,-,MIC,-,H37Rv,-,0.0075 µg/mL
CCCCCCCCCCCCNC(CC(=O)OCC)c1ccccc1[N+](=O)[O-],-,MIC,-,H37Ra,-,<25 µg/mL
CN(CCO)c1ccc2c(=O)n3c(nc2c1)C(=O)c1cc(F)ccc1-3,-,MIC,-,H37Rv,-,0.13 µg/mL
NC1CCN(c2c(F)cc3c(=O)c(C(=O)O)cn(C4CC4)c3c2Cl)C1,-,MIC,-,ATCC 35822,-,0.25 µg/mL
CSC(=S)NCC(=O)O,-,inhibition,BACTEC,H37Rv,128 µg/mL,61%
CC[C@H]1OC(=O)[C@H](C)[C@@H](O[C@H]2C[C@@](C)(OC)[C@@H](O)[C@H](C)O2)[C@H](C)[C@@H](O[C@@H]2O[C@H](C)C[C@H](N(C)C)[C@H]2O)[C@](C)(O)C[C@@H](C)CN(C)[C@H](C)[C@@H](O)[C@]1(C)O,-,MBC,-,ATCC 35820,-,>8 µg/mL
Cc1c(O)c(=O)ccn1CCN.Cl.Cl,-,MIC bound,BACTEC,H37Rv,-,>12.5 µg/mL
CO[C@H]1/C=C/O[C@@]2(C)Oc3c(C)c(O)c4c(O)c(c(/C=N/N5CCN(C)CC5)c(O)c4c3C2=O)NC(=O)/C(C)=C\C=C\[C@H](C)[C@H](O)[C@@H](C)[C@@H](O)[C@@H](C)[C@H](OC(C)=O)[C@@H]1C,-,MIC,-,V2475,-,0.39 µM
CCCCNC(=O)c1c(N)sc2c1CCN(CC)C2,-,MIC,resazurin,H37Rv,-,>100 µg/mL
CCCCCCCCCCCCCCCCNCc1cccnc1,-,MIC,-,H37Ra,-,<25 µg/mL
CCCc1nc2ccccc2c2nc3cc4ccccc4cc3n12,-,MIC99,resazurin,H37Rv,-,6.25 µg/mL
COc1ccc2c(C)cc(N/N=C/c3ccc(OC)c4ccccc34)nc2c1,-,inhibition,BACTEC,H37Rv,12.5 µg/mL,99%
O=C(O)c1ccc(NCN2CCCCC2)cc1O,-,MIC90,resazurin,H37Rv,-,<6.25 µg/mL
CO[C@H]1/C=C/O[C@@]2(C)Oc3c(C)c(O)c4c(=O)c(c5oc6cc(N7CCN(CC(C)C)CC7)cc(=O)c6nc5c4c3=C2O)NC(=O)/C(C)=C\C=C\[C@H](C)[C@H](O)[C@@H](C)[C@@H](O)[C@@H](C)[C@H](OC(C)=O)[C@@H]1C,-,MIC,-,TN981,-,16 µg/mL
N#Cc1ccc(N2CC3CC2CN3Cc2ccc([N+](=O)[O-])o2)cc1,INH RFP resistant,MIC90,resazurin,Clinical Isolate 16833,-,6.54 µg/mL
O=C(O)c1ccc(-n2[nH]c(=S)n(-c3ccc(F)cc3)c(=O)c2=O)cc1O,-,MIC90,resazurin,H37Rv,-,<6.25 µg/mL
CC(C)(C)c1ccc(N2CCN(Cc3ccc([N+](=O)[O-])o3)CC2)cc1,INH RFP resistant,MIC90,resazurin,Clinical Isolate 16995,-,2.12 µg/mL
CCN(CC)c1ccc2nc3ccc(N=Nc4ccc(N(C)C)cc4)cc3[n+](-c3ccccc3)c2c1,-,inhibition,resazurin,H37Rv,6.25 µg/mL,101%
CCCCCCCCc1ccc2c(c1)C(=O)c1nc3ccncc3c(=O)n1-2,-,MIC,-,H37Rv,-,≤0.015 µg/mL
C=C1C(=O)O[C@H]2C[C@@]3(C)[C@H](O)CCC(=C)[C@@H]3[C@@H](OC(C)=O)[C@H]12,-,inhibition,resazurin,H37Rv,6.25 µg/mL,-5%
COCc1ccc2c(c1)C(=O)c1nc3ccncc3c(=O)n1-2,-,MIC,-,H37Rv,-,0.13 µg/mL
Cc1cc2c(=O)c3ccccc3[nH]c2c(C(N)=O)c1C,-,MIC bound,BACTEC,H37Rv,-,>12.5 µg/mL
O=C1NC(=S)N/C1=C/c1ccc(F)cc1,-,inhibition,BACTEC,H37Rv,6.25 µg/mL,75%
CCNC(=O)c1c(NC(=O)c2c(F)c(F)c(F)c(F)c2F)sc2c1CCN(CC)C2,-,MIC,resazurin,H37Rv,-,5.8 µM
C/C(=C1\NC(=S)NC1=O)c1ccccc1,-,inhibition,BACTEC,H37Rv,6.25 µg/mL,0%
CCC(C)c1c(NS(=O)(=O)c2ccc(C)cc2)o[nH]c1=O,-,inhibition,BACTEC,H37Rv,12.5 µg/mL,10%
N#Cc1c(NC(=O)c2c(F)c(F)c(F)c(F)c2F)sc2c1CCOC2,rpoB S522L mutant,EC50,turbidity,H37Rv,-,3.8 µM
S=P(NNc1ccccc1)(NNc1ccccc1)c1ccc(Cl)cc1,-,inhibition,resazurin,H37Rv,6.25 µg/mL,26%
CCCCCCCCCCCCNCc1ccc(Cl)cc1,-,MIC,-,H37Ra,-,<25 µg/mL
O=[N+]([O-])c1ccc(CN2CC3CN(c4ccc(OC(F)(F)F)cc4)CC3C2)o1,-,MIC90,resazurin,H37Rv,-,<0.016 µg/mL
CCCCCCCCC=CCCCCCCCCNCc1ccc(Cl)cc1,-,MIC,-,Clinical isolates MDR,-,25 µg/mL
COC(=O)/C(=N\O)C(C(=O)C=C(C)C)C(=O)C(=O)Nc1nc2ccc([N+](=O)[O-])cc2s1,-,inhibition,resazurin,H37Rv,6.25 µg/mL,5%
c1ccc(OCc2nnc(CON=C(c3ccccc3)c3ccccc3)o2)cc1,-,inhibition,-,-,12.5 µg/mL,7–56%
O=C1NC(=S)N/C1=C/c1ccc(Cl)cc1Cl,-,inhibition,BACTEC,H37Rv,6.25 µg/mL,6%
Cc1nc2ccc(F)cc2c2nc3ccccc3n12,-,MIC99,resazurin,H37Rv,-,25 µg/mL
C/C(=N\OCCc1nnc(-c2ccc(N)cc2)o1)c1ccccc1,-,inhibition,-,-,12.5 µg/mL,7–56%
O=C1c2cc(OC(F)(F)F)ccc2-n2c1nc1ccncc1c2=O,-,MBC,-,H37Rv,-,1 µg/mL
C/C(=N\OCc1n[nH]c(=S)o1)c1ccccc1,-,inhibition,-,-,12.5 µg/mL,7–56%
C=CS(=O)(=O)c1ccc(Nc2cc(S(=O)(=O)O)c(N)c3c2C(=O)c2ccccc2C3=O)cc1,-,MIC bound,BACTEC,H37Rv,-,>12.5 µg/mL
O=C(O)c1ccc(/C=[N+]2\C(=O)Nc3ccc(F)cc32)cc1O,-,MIC90,resazurin,H37Rv,-,<6.25 µg/mL
O=[N+]([O-])c1ccc(CN2CC3CN(c4ccc(C(F)(F)F)cc4)CC3C2)o1,-,MIC90,resazurin,H37Rv,-,0.035 µg/mL
CCN1CCc2c(sc(NC(=O)c3c(F)c(F)c(F)c(F)c3F)c2C#N)C1,-,EC50,turbidity,ATCC35838,-,6.3 µM
O=C(NCCO)C(=O)N/N=C/c1ccc([N+](=O)[O-])o1,-,MIC,-,PZA-R,-,6.3 µg/mL
O=C1NC(=S)N/C1=C/c1ccc(C(F)(F)F)cc1,-,EC50,BACTEC,H37Rv,-,<6.25 µg/mL
COC1OC(CO)C(O)C1NC(C)=O,-,MIC bound,BACTEC,H37Rv,-,>12.5 µg/mL
Nc1sc(-c2ccccc2)cc1C(=O)Nc1ccccc1,-,MIC,resazurin,H37Rv,-,100 µg/mL
CC(=O)Oc1ccc2c(oc(=O)c3nc(C)oc32)c1C,-,inhibition,BACTEC,H37Rv,6.25 µg/mL,35%
O=C1c2cc(I)ccc2-n2c1nc1ncccc1c2=O,-,MIC,-,10038RFLP:W (MDR),-,0.06 µg/mL
O=C1NC(=S)N/C1=C/c1cccc(C(F)(F)F)c1,-,EC50,BACTEC,H37Rv,-,>6.25 µg/mL
CC(C)(C)c1cccc(N2CC3CN(Cc4ccc([N+](=O)[O-])o4)CC3C2)c1,-,MIC90,resazurin,H37Rv,-,<0.016 µg/mL
O=NN(CC(=O)N/N=C/C=C/c1ccccc1)CC(=O)N/N=C/C=C/c1ccccc1,-,MIC bound,BACTEC,H37Rv,-,>12.5 µg/mL
O=C1NC(=S)N/C1=C\c1c(F)cccc1Cl,-,inhibition,BACTEC,H37Rv,6.25 µg/mL,0%
O=C1C=C2C(=CCOC2O)O1,-,inhibition,BACTEC,-,0.5 µM,0%
CCOC(=O)c1c(NC(=O)c2c(F)c(F)c(F)c(F)c2F)sc2c1CCOC2,-,EC90,turbidity,ATCC35838,-,0.24 µM
CCCc1nc2ccc(F)cc2c2nc3ccccc3n12,-,MIC99,resazurin,H37Rv,-,25 µg/mL